Measured values from several laboratories, pooled; numbers as filed in NIAID ChemDB.

Shared fields: tests in culture; species: HIV-1; cells: CEM; measure: EC50

ECn: concentration that inhibits the pathogen or its effect by n%.

SMILES	strain or isolate	mutations	read by	result
CCOC(=O)c1cc(NC(=O)C2=C(CC)OCCS2)ccc1Cl	TIBO-resistant (RT L100I)	RT-L100I	syncytia	0.8 µg/mL
C/C=C/COc1cc(NC(=S)OC(C)C)ccc1Cl	IIIB	RT-K101E		0.013 µM
CC(C)CN(C[C@@H](O)[C@H](Cc1ccccc1)NC(=O)OCc1cccnc1)S(=O)(=O)c1ccc2nonc2c1	IIIB		p24	<1.001 µM
Cc1occc1C(=O)Nc1ccc(Cl)c(SCC=C(Cl)Cl)c1	Nevirapine-resistant isolate (RT V106A)	RT-V106A	syncytia	0.8 µg/mL
CC(C)CN(C[C@@H](O)[C@H](Cc1ccccc1)NC(=O)O[C@H]1CCOC1)S(=O)(=O)c1ccc(F)cc1	IIIB		p24	<1 µM
CCOCn1c(Cc2ccccc2)c(CC)c(=O)[nH]c1=O	IIIB	RT-E138K	syncytia	0.09 µM
CC(C)(C)NC(=O)c1ccccc1C(=O)C(=O)C(=O)N(CC1CCCC1)S(=O)(=O)c1ccccc1	IIIB		p24	<1 µM
Cc1cc(C)cc(Sc2c(C(C)C)c(=O)[nH]c(=S)n2COCCO)c1	IIIB		syncytia	0.006 µM
CC(C)=CCOc1cc(NC(=S)c2ccoc2C)ccc1Cl	IIIB	RT-L100I	syncytia	0.024 µM
CC(=O)Nc1cccc(S(=O)(=O)N(CC(C)C)C[C@@H](O)[C@H](Cc2ccccc2)NC(=O)OC2CCOC2)c1	IIIB		p24	<0.101 µM
C=C(Cl)COc1cc(NC(=S)c2ccoc2C)ccc1Cl	TIBO R82913-resistant (RT K103N)	RT-K103N	syncytia	0.65 µg/mL
CC(C)O/N=C/c1cc(NC(=S)OC(C)C)ccc1Cl	IIIB	RT-K101E		0.041 µM
CC(=O)Nc1ccc(S(=O)(=O)N(CC(C)C)C[C@@H](O)[C@H](Cc2ccccc2)NC(=O)O[C@H]2CCOC2)cc1	IIIB		p24	<0.101 µM
CCC1=C(C(=O)OCC2CCCCC2)[C@H](c2ccc(OC(C)=O)cc2)NC(=O)N1			p24 / ELISA	≤1 µM
C/C=C/CSc1cc(NC(=S)c2ccsc2C)ccc1Cl	IIIB		syncytia	0.017 µM
Cc1sccc1C(=S)Nc1ccc(Cl)c(OCC=C(Cl)Cl)c1	IIIB		syncytia	0.007 µg/mL
CC(C)CN(CC(O)CN(CC(C)C)S(=O)(=O)c1ccc([N+](=O)[O-])cc1)S(=O)(=O)c1ccccc1	IIIB		p24	<1 µM
CC(C)=CCOc1cc(NC(=S)c2ccoc2C)ccc1Cl	IIIB	RT-K103N	syncytia	0.069 µM
C=CCOC(=S)Nc1ccc(Cl)c(C(=O)OC(C)C)c1		RT-V106A	syncytia	20.71 µM
CC1=C(C(=O)Nc2ccc(Cl)c(C(=O)OC(C)C)c2)SCCO1	IIIB	RT-V106A	syncytia	>61 µM
Cc1occc1C(=S)Nc1ccc(Cl)c(SCC=C(Cl)Cl)c1	TIBO R82150-resistant (RT L100I)	RT-L100I	syncytia	0.023 µg/mL
CCCCCOC(=O)c1cc(NC(=O)C2=C(C)OCCS2)ccc1Cl	IIIB		syncytia	0.6 µg/mL
C=CCOC(=O)N[C@@H](Cc1ccccc1)[C@H](O)CN(CC1CCCC1)S(=O)(=O)c1ccc(Cl)cc1	IIIB		p24	<10 µM
CCc1c(Sc2cc(C)cc(C)c2)n(COCCO)c(=S)[nH]c1=O	IIIB (TIBO 82150) (RT-L100I)	RT-L100I	syncytia	0.03 µM
CCC1=C(C(=O)c2ccc(C)cc2)C(c2cccc(O)c2)NC(=O)N1			p24 / ELISA	>5 µM
CC(C)OC(=S)Nc1ccc(Cl)c(C(=O)OC2CC2)c1		RT-V106A	syncytia	6.373 µM
C=C(COC)COC(=O)N[C@@H](Cc1ccccc1)[C@H](O)CN(CC1CCCC1)S(=O)(=O)c1ccc(OC)cc1	IIIB		p24	<1.001 µM
COc1ccc(S(=O)(=O)N(CC[C@H](O)CN2CSC[C@@H]2C(=O)NC(C)(C)C)CC(C)C)cc1	IIIB		p24	<1 µM
CCC(=O)C1=C(CCC2CCCCCC2)NC(=O)N[C@H]1c1ccc(OC(C)=O)c(Cl)c1			p24 / ELISA	>5 µM
CC(=O)OCCOC(=O)c1cc(NC(=S)OC(C)C)ccc1Cl		RT-L100I	syncytia	≥27.79 µM
CCC1=C(c2nc(C3CCCCC3)cs2)C(Cc2ccccc2)NC(=O)N1			p24 / ELISA	>5 µM
CO/N=C(\C)COc1cc(NC(=S)OC(C)C)ccc1Cl		RT-Y181C	syncytia	12.09 µM
COc1ccc(NC(=O)C2=C(C)OCCS2)cc1OCC=C(Cl)Cl	TSAO-m3T-resistant (RT E138K)	RT-E138K	syncytia	10 µg/mL
Cc1occc1C(=S)Nc1ccc(Cl)c(/C=N/OC(C)(C)C)c1	IIIB	RT-K103N	syncytia	1.14 µM
CCCSC(=Nc1ccc(Cl)c(C(=O)OC(C)C)c1)OC(C)C	IIIB		syncytia	1.81 µM
CCc1c(Sc2ccccc2)n(COCc2ccccc2)c(=S)[nH]c1=O	IIIB	RT-Y188H	syncytia	≥25 µM
CCC1=C(C(=O)Nc2ccc(Cl)c(C(=O)OC(C)C)c2)SCCO1	TSAO-resistant (RT E138K)	RT-E138K	syncytia	0.6 µg/mL
COC(=S)Nc1ccc(Cl)c(C(=O)OC(C)C)c1		RT-Y181C	syncytia	≥34.75 µM
COc1ccc(C)cc1CS(=O)(=O)c1cccc[n+]1[O-]	RF		syncytia	10 µg/mL
C=C(C)COc1cc(NC(=S)OC(C)C)ccc1Cl		RT-V106A	syncytia	13.34 µM
COc1ccc(NC(=S)c2ccoc2C)cc1OCC=C(Cl)Cl	TIBO R82150-resistant (RT L100I)	RT-L100I	syncytia	0.075 µg/mL
C#CCOc1cc(NC(=S)OC(C)C)ccc1Cl	IIIB		syncytia	0.282 µM
CCCC1=C(C(=O)Nc2ccc(Cl)c(C(=O)OC)c2)SCCO1	PYR-resistant (RT Y181C)	RT-Y181C	syncytia	>10 µg/mL
COc1ccc(NC(=S)C2=C(C)OCCS2)cc1OCC=C(Cl)Cl	TIBO R82150-resistant (RT L100I)	RT-L100I	syncytia	1.8 µg/mL
CC(C)c1c(Sc2ccccc2)n(COCCO)c(=O)[nH]c1=O	IIIB TIBO R82913-resistant (RT K103N)	RT-K103N	syncytia	≥10 µM
COc1ccc(S(=O)(=O)N(CC(C)C)C[C@@H](O)CCN(CC2CCCC2)S(=O)(=O)C(C)(C)C)cc1	IIIB		p24	<1 µM
Cc1ccc(C)c(CS(=O)c2ccc(Cl)c[n+]2[O-])c1	IIIB	RT-E138K	syncytia	9.5 µg/mL
CSC(=Nc1ccc(Cl)c(C(=O)OC(C)C)c1)OC(C)C		RT-E138K	syncytia	>30.13 µM
CCC1=C(C(=O)OCC2CCCCC2)C(c2cc(O)c(O)c(O)c2)NC(=O)N1			p24 / ELISA	>5 µM
CCOCn1c(Sc2ccccc2)c(C(C)C)c(=O)[nH]c1=O	IIIB		syncytia	0.025 µM
COC(=O)Oc1ccc(NC(=O)C2=C(C)OCCS2)cc1C(=O)OC(C)C	PYR-resistant (RT Y181C)	RT-Y181C	syncytia	9 µg/mL
COCCOC(=S)Nc1ccc(Cl)c(C(=O)OC(C)C)c1	IIIB		syncytia	0.573 µM
CC1=C(C(=O)OCC2CCCCC2)C(c2cccc(OC(=O)C(C)(C)C)c2)NC(=O)N1			p24 / ELISA	≤1 µM
CC(C)CN(C[C@@H](O)[C@H](Cc1ccccc1)NC(=O)OCc1ccccc1)S(=O)(=O)c1ccc(F)cc1	IIIB		p24	<10 µM
CCC1=C(C(=O)Nc2ccc(Cl)c(C(=O)OCC(C)C)c2)SCCO1	Nevirapine-resistant (RT V106A)	RT-V106A	syncytia	3 µg/mL
CCC(CC)OC(=O)c1cc(NC(=S)OC(C)C)ccc1Cl		RT-V106A	syncytia	11.63 µM
CCc1c(Cc2cc(C)cc(C)c2)n(COCCO)c(=O)[nH]c1=O	IIIB		syncytia	0.028 µM
Cc1ccc(C)c(CS(=O)(=O)c2cccc[n+]2[O-])c1	HE		syncytia	11 µg/mL
CCC1=C(C(=O)OCC2CCCCC2)[C@H](c2ccc(OC(=O)c3cccnc3)cc2)NC(=O)N1			p24 / ELISA	≤1 µM
COc1ccc(S(=O)(=O)N(CC2CCCC2)CC(F)(F)C(=O)[C@@H](Cc2ccccc2)NC(=O)O[C@H]2CCOC2)cc1	IIIB		p24	<1 µM
CC1=C(C(=O)Nc2ccc(Cl)c(C(=O)OCC3CCC3)c2)SCCO1	PYR-resistant (RT Y181C)	RT-Y181C	syncytia	0.4 µg/mL
CC(=O)Nc1cc(S(=O)(=O)N(CC(C)C)C[C@@H](O)[C@H](Cc2ccccc2)NC(=O)OC(C)(C)C)ccc1F	IIIB		p24	<10 µM
C#CCOC(=O)c1cc(NC(=S)OC(C)C)ccc1Cl		RT-L100I	syncytia	19.24 µM
COC(=O)N[C@@H](Cc1ccccc1)[C@H](O)CN(CC(C)C)S(=O)(=O)c1ccc(F)cc1	IIIB		p24	<10 µM
CCC(C)OC(=O)c1cc(NC(=S)OC(C)C)ccc1Cl		RT-E138K	syncytia	1.667 µM
COc1ccc(S(=O)(=O)N(CC(C)C)C[C@@H](O)CCN(CC2CCCC2)S(=O)(=O)c2ccccn2)cc1	IIIB		p24	<1 µM
CC(C)OC(=S)Nc1ccc(Cl)c(C(=O)OC(C(C)C)C(C)C)c1		RT-L100I	syncytia	>2.689 µM
CC(C)CN(C[C@@H](O)[C@H](Cc1ccccc1)NC(=O)O[C@H]1CCOC1)S(=O)(=O)c1ccc2nonc2c1	IIIB		p24	<0.101 µM
CC1=C(C(=O)Nc2ccc(Cl)c(OCC=C(Cl)Cl)c2)SCCO1	HEPT-resistant (RT Y188H)	RT-Y188H	syncytia	2 µg/mL
C=CCOC(=O)c1cc(NC(=S)OC(C)C)ccc1Cl		RT-V106A	syncytia	0.318 µM
CCCOC(=O)N[C@@H](Cc1ccccc1)[C@H](O)CN(CC(C)C)S(=O)(=O)c1ccc(Cl)c(Cl)c1	IIIB		p24	<10 µM
C=CCOc1cc(NC(=S)OC(C)C)ccc1Cl	IIIB		syncytia	0.735 µM
CC(C)CN(C[C@@H](O)[C@H](Cc1ccccc1)NC(=O)O[C@@H]1CCOC1)S(=O)(=O)c1ccc([N+](=O)[O-])cc1	IIIB		p24	<0.101 µM

Repeating the final 8 entries:

{"SMILES": "COc1ccc(S(=O)(=O)N(CC(C)C)C[C@@H](O)CCN(CC2CCCC2)S(=O)(=O)c2ccccn2)cc1", "strain or isolate": "IIIB", "read by": "p24", "result": "<1 µM"}
{"SMILES": "CC(C)OC(=S)Nc1ccc(Cl)c(C(=O)OC(C(C)C)C(C)C)c1", "mutations": "RT-L100I", "read by": "syncytia", "result": ">2.689 µM"}
{"SMILES": "CC(C)CN(C[C@@H](O)[C@H](Cc1ccccc1)NC(=O)O[C@H]1CCOC1)S(=O)(=O)c1ccc2nonc2c1", "strain or isolate": "IIIB", "read by": "p24", "result": "<0.101 µM"}
{"SMILES": "CC1=C(C(=O)Nc2ccc(Cl)c(OCC=C(Cl)Cl)c2)SCCO1", "strain or isolate": "HEPT-resistant (RT Y188H)", "mutations": "RT-Y188H", "read by": "syncytia", "result": "2 µg/mL"}
{"SMILES": "C=CCOC(=O)c1cc(NC(=S)OC(C)C)ccc1Cl", "mutations": "RT-V106A", "read by": "syncytia", "result": "0.318 µM"}
{"SMILES": "CCCOC(=O)N[C@@H](Cc1ccccc1)[C@H](O)CN(CC(C)C)S(=O)(=O)c1ccc(Cl)c(Cl)c1", "strain or isolate": "IIIB", "read by": "p24", "result": "<10 µM"}
{"SMILES": "C=CCOc1cc(NC(=S)OC(C)C)ccc1Cl", "strain or isolate": "IIIB", "read by": "syncytia", "result": "0.735 µM"}
{"SMILES": "CC(C)CN(C[C@@H](O)[C@H](Cc1ccccc1)NC(=O)O[C@@H]1CCOC1)S(=O)(=O)c1ccc([N+](=O)[O-])cc1", "strain or isolate": "IIIB", "read by": "p24", "result": "<0.101 µM"}

An empty or dashed field is not shown. Rows are shuffled and stem from different studies.